Source: the supplement of paper PMC9931576
Human monoclonal antibodies against the spike receptor-binding domain (heavy:light variable regions). IC50 against pseudoviruses bearing the spike of naturally observed variants; lower = stronger; >10 µg/ml means not reached at the top dose. No active / inactive call. The stated detection limit is 0.0005 µg/ml; values near or below 0.001 µg/ml lie at the floor of the assay.

Experiments:
Test in all cases: pseudovirus neutralization IC50; higher = weaker neutralization
[1] = target: SARS-CoV-2 Omicron BA.1 spike pseudovirus
Experimental: (§1)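 Single-round VSV luciferase pseudovirus mixed with antibody dilutions for 1 h and put on Huh-7 cells for about a day; IC50 from the dose curve.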

[2] = target: SARS-CoV-2 Omicron BA.2 spike pseudovirus
Experimental: as §1

[3] = target: SARS-CoV-2 Omicron BA.2.75 spike pseudovirus
Experimental: as §1

[4] = target: SARS-CoV-2 Omicron BA.5 spike pseudovirus
Experimental: as §1

[5] = target: SARS-CoV-2 Omicron BQ.1.1 spike pseudovirus
Experimental: as §1

[6] = target: SARS-CoV-2 Omicron XBB spike pseudovirus
Experimental: as §1

[7] = target: SARS-CoV-2 early D614G spike pseudovirus
Experimental: as §1

B1: DH1088 (protein)
chain 1: EVQLVESGGGLVQPGRSLRLSCVASGFSPGDYAMHWVRQAPGKGLEWVSGISWNSVSIDYADSVKGRFTISRDNAKNSLYLQMNSLRPEDTALYYCARGGFKSGFYIHGMDVWGQGTTVTVSS
chain 2: QSALTQPASVSGSPGQSITISCTGTSSDIGDYDYVSWYQQHPGKAPKLLIYDVTYRPSGVSNLFSGSKSGNTASLTISGLQAEDEAVYYCSSYTTSNTLVFGGGTKLTVL
- pseudovirus neutralization IC50 [1]: > 10 µg/mL
- pseudovirus neutralization IC50 [2]: > 10 µg/mL
- pseudovirus neutralization IC50 [3]: > 10 µg/mL
- pseudovirus neutralization IC50 [4]: > 10 µg/mL
- pseudovirus neutralization IC50 [5]: > 10 µg/mL
- pseudovirus neutralization IC50 [6]: > 10 µg/mL
- pseudovirus neutralization IC50 [7]: > 10 µg/mL

B2: DH1117 (protein)
chain 1: EVQLVESGGGLVQPGGFLRLSCSASGFSFRTYSMHWVRQAPGKGLEHVSAISRNGDITYYADSMEGRFTISRDNSKNTLYLQMSSLRPEDTAVYYCVKDKVTTIFDVFDLWGQGTMVTVSS
chain 2: DIQMTQSPASLSASVGDRVTITCRASQSVNIYLNWYQQKPGKAPTLLIHGASSLQTGVPSRFSGSGSGTDFTLTISSLQPEDFATYYCQQSYSPPRTFGQGTKVEIR
- pseudovirus neutralization IC50 [1]: > 10 µg/mL
- pseudovirus neutralization IC50 [2]: > 10 µg/mL
- pseudovirus neutralization IC50 [3]: > 10 µg/mL
- pseudovirus neutralization IC50 [4]: > 10 µg/mL
- pseudovirus neutralization IC50 [5]: > 10 µg/mL
- pseudovirus neutralization IC50 [6]: > 10 µg/mL
- pseudovirus neutralization IC50 [7]: > 10 µg/mL

B3: BD55-2314 (protein)
chain 1: QIQLVQSGVELKKPGASVKVSCKASGYTFLSYGISWVRQAPGQGLEWMGWFSGDNGDTQYAQNFQGRVTMTADTSTSTAYMEMRSLRTDDTAVYYCASRRFGELTLEFWGQGTLVTVSS
chain 2: EVVLTQSPATLSVSPGERATLSCRASQSVSTYLAWYQQKPGQAPRLLIYDASTRAASTPTRFSGSGSGTEFTLTISSLQSEDLALYHCQQYSDWPSNTFGQGTKLEIK
- pseudovirus neutralization IC50 [1]: > 10 µg/mL
- pseudovirus neutralization IC50 [2]: > 10 µg/mL
- pseudovirus neutralization IC50 [3]: > 10 µg/mL
- pseudovirus neutralization IC50 [4]: > 10 µg/mL
- pseudovirus neutralization IC50 [5]: > 10 µg/mL
- pseudovirus neutralization IC50 [6]: > 10 µg/mL
- pseudovirus neutralization IC50 [7]: > 10 µg/mL

B4: BD55-3149 (protein)
chain 1: QVRLVESGGGVVQPGRSLRLSCATSGFSFSTYAMHWVRQAPGKGLEWLAVVSFDGRNKYHADSVKGRFTVSRDNSKNTLYLQMMSLRPEDTAVYYCAKEVNYGSGSYENEGRLDYWGQGTLVTVSS
chain 2: DIQMTQSPSSLSASVGDRVTITCRASQTITKYLNWYQQKPGKAPKLLIFATSTLETGVPSRFSGSGSGTDFTLTITNLQPEDFATYYCQETHSLPWTFGQGTKVEI
- pseudovirus neutralization IC50 [1]: > 10 µg/mL
- pseudovirus neutralization IC50 [2]: > 10 µg/mL
- pseudovirus neutralization IC50 [3]: > 10 µg/mL
- pseudovirus neutralization IC50 [4]: > 10 µg/mL
- pseudovirus neutralization IC50 [5]: > 10 µg/mL
- pseudovirus neutralization IC50 [6]: > 10 µg/mL
- pseudovirus neutralization IC50 [7]: 0.595 µg/mL

B5: BD55-3300 (protein)
chain 1: EVQLLESGGGLVQPGGSLRLSCAVSGFMFSRYAMTWGRQAPGKGLEWVASSGGYGGDTYYADSVKGRFTISRDNSKNTLFLQMNSLRAEDTAVYYCAKGSRSNPDYFESWGQGTLVTVSS
chain 2: DIQMTQSPSTLSASVGDRVTITCRASQSITNWLAWYQQKPGKAPKLLIYDVSILESGVPSRFSGSGSGTEFTLTISSLQPDDFATYYCQQYNSYSPLTFGGGTKVEIK
- pseudovirus neutralization IC50 [1]: 4.56 µg/mL
- pseudovirus neutralization IC50 [2]: 3.56 µg/mL
- pseudovirus neutralization IC50 [3]: 1.96 µg/mL
- pseudovirus neutralization IC50 [4]: 5.13 µg/mL
- pseudovirus neutralization IC50 [5]: > 10 µg/mL
- pseudovirus neutralization IC50 [6]: > 10 µg/mL
- pseudovirus neutralization IC50 [7]: > 10 µg/mL

B6: BD55-3304 (protein)
chain 1: QVQLVESGGGVVQPERSLRLSCAASGFIFSNYGMHWVRQAPGKGLEWVALIWYDGSNRYYADSVKGRFTISRDNSRNTLYLQMNSLRAEDTAMYYCAKSALRGYSGYDFFSRVSDEYYFDNWGQGTLVTVSS
chain 2: DIVMTQSPDSLAVSLGERATISCKSSQSVLYSSNNQNYLAWYQQKPGQPPKLLIKWASTRESGVPDRFSGSGSGTDFTLTITSLQAEDVAVYYCQQYFDTPHFGQGTKLEIK
- pseudovirus neutralization IC50 [1]: > 10 µg/mL
- pseudovirus neutralization IC50 [2]: > 10 µg/mL
- pseudovirus neutralization IC50 [3]: > 10 µg/mL
- pseudovirus neutralization IC50 [4]: > 10 µg/mL
- pseudovirus neutralization IC50 [5]: > 10 µg/mL
- pseudovirus neutralization IC50 [6]: > 10 µg/mL
- pseudovirus neutralization IC50 [7]: 0.479 µg/mL
